Pooled drug test results. Numbers come from NIAID ChemDB, via PubChem.

Common to all: tests in culture; organism: Candida albicans

An empty or dashed field is not shown. a–b is a range or a potency band. Zones are inhibition diameters on agar. Conditions beyond the fields shown may differ between rows. Inhibition is in % at the dose shown (toxicity tests: loss of growth or viability). MIC50, MIC90 and the like: level of inhibition, or share of isolates inhibited. ECn is the concentration giving n% inhibition of infection, replication or growth.

SMILES	strain or isolate	tested at	read-out	read by	result
C=C(Cl)CN1C[C@H](OCC23C[C@@H]4[C@H](C)CC[C@H]4C4(C=O)CC2C=C(C(C)C)C34C(=O)O)O[C@H](C)C1	22 isolates	-	MIC95	-	0.06 µg/mL
O=c1c(-c2ccc(O)cc2)coc2cc(OCCCCNCc3ccco3)cc(O)c12	-	-	MIC	MTT	>50 µg/mL
CC(C)(C)[C@](O)(COc1ccc(Cl)cc1)Cn1cncn1	-	-	MLC50	-	>0.08 µg/mL
C[C@@H]1[C@H](O)[C@@H](C)/C=C/C=C/CC/C=C/C=C/C=C/C=C/C(O[C@H]2O[C@H](C)[C@@H](O)[C@H](N)[C@@H]2O)CC2O[C@](O)(CC(O)C(O)CCC(O)CC(O)CC(O)CC(=O)O[C@H]1C)CC(O)C2C(=O)O	-	-	MFC	broth dilution	25 µg/mL
C=CCc1ccc(O)c(-c2ccc(O)c(CC=C)c2)c1	YL 325	-	MIC	broth dilution	128 µg/mL
O=c1c(-c2ccc(O)cc2)coc2cc(OCCCCN3CCCC3)cc(O)c12	-	-	MIC	MTT	>50 µg/mL
C(/C=C/c1ccccc1)=NCCNCCN=C/C=C/c1ccccc1.N#C[S][Hg][S]C#N	-	30000 µg/mL	zone	agar diffusion	27 mm
COc1ccc(C=O)c(OC)c1OC	ATCC 90028	-	MIC99.9	broth dilution	2000 µg/mL
CC(C)[C@H](NC(=O)[C@H](Cc1ccccc1)NC(=O)[C@H](CCCCN)NC(=O)CNC(=O)[C@@H](N)Cc1c[nH]c2ccccc12)C(N)=O	-	100 µM	inhibition	colony count	5.7%
CCC(C)CC(C)CCCCCCCCC(=O)N[C@H]1C[C@@H](O)[C@H](NCCN)NC(=O)[C@@H]2[C@@H](O)CCN2C(=O)[C@H]([C@H](O)CCN)NC(=O)[C@H]([C@H](O)[C@@H](O)c2ccc(O)cc2)NC(=O)[C@@H]2C[C@@H](O)CN2C(=O)[C@H]([C@@H](C)O)NC1=O	-	-	Geometric mean MFC	-	1.31 µg/mL
NC(=O)[C@H](Cc1c[nH]c2ccccc12)NC(=O)[C@H](CCCN=C(N)N)NC(=O)[C@@H](Cc1cccc2ccccc12)NC(=O)[C@@H](N)Cc1cnc[nH]1	-	100 µM	inhibition	colony count	43%
O=c1c(-c2ccc(O)cc2)coc2cc(OCCCN3CCOCC3)cc(O)c12	-	-	MIC	MTT	>50 µg/mL
Clc1ccc(COC(Cn2ccnc2)c2ccc(Cl)cc2Cl)cc1	-	-	MIC95	-	12.5 µg/mL
CO[C@H]1/C=C/O[C@@]2(C)Oc3c(C)c(O)c4c(O)c(c(/C=N/N5CCN(C)CC5)c(O)c4c3C2=O)NC(=O)/C(C)=C\C=C\[C@H](C)[C@H](O)[C@@H](C)[C@@H](O)[C@@H](C)[C@H](OC(C)=O)[C@@H]1C	20 isolates	0.4 µg/mL	inhibition	-	25%
COc1cccc(CSC#N)c1	-	-	MFC	broth dilution	600 µg/mL
O=C(O)/C=C/c1ccccc1	ATCC 10231	-	EC50	broth dilution / turbidity	0.74 µM
C(/C=C/c1ccccc1)=NCCNCCN=C/C=C/c1ccccc1.[Br][Hg][Br]	-	20000 µg/mL	zone	agar diffusion	25 mm
CC(=O)OC[C@]12CC[C@]3(C(C)C)C1=C1C(CC4[C@@]5(C)CC[C@H](OC(C)=O)C(C)(C)C5CC[C@@]4(C)[C@]1(C)CC2)n1c(=O)n(-c2ccc4c(c2)OCO4)c(=O)n13	ATCC 90028	-	MIC90	broth dilution	4.4 µg/mL
OC(Cn1cncn1)(Cn1cncn1)c1ccc(F)cc1F	75 strains	15 µg/mL	inhibition	agar diffusion / agar	65%
CCC(C)CC(C)CCCCCCCCC(=O)NC1CC(O)CNC(=O)C2C(O)CCN2C(=O)C(C(O)CC(N)=O)NC(=O)C(C(O)Cc2ccc(OP(=O)([O-])[O-])cc2)NC(=O)C2CC(O)CN2C(=O)C(C(C)O)NC1=O.[Na+].[Na+]	MY1028	-	MFC	-	2 µg/mL
O=C/C=C/c1ccccc1	Clinical isolates	-	MIC90	-	125–450 µg/mL
O=c1c(-c2ccc(O)cc2)coc2cc(OCCCn3cnc4ccccc43)cc(O)c12	-	-	MIC	MTT	>50 µg/mL
CC(=O)N1CCN(c2ccc(OC[C@H]3CO[C@](Cn4ccnc4)(c4ccc(Cl)cc4Cl)O3)cc2)CC1	Isogenic isolate 12 (25X)	-	MIC	-	≤0.008 µg/mL
C[C@@H]1[C@H](O)[C@@H](C)/C=C/C=C/CC/C=C/C=C/C=C/C=C/C(O[C@H]2O[C@H](C)[C@@H](O)[C@H](N)[C@@H]2O)CC2O[C@](O)(CC(O)C(O)CCC(O)CC(O)CC(O)CC(=O)O[C@H]1C)CC(O)C2C(=O)O	ATCC 10231	-	MFC99.9	broth dilution	6.25 µg/mL
Clc1ccc(C(Cn2ccnc2)OCc2ccsc2Cl)c(Cl)c1	75 strains	10 µg/mL	inhibition	agar diffusion / agar	65%
Cc1c(F)c(N2CCC(N)C2)cc2c(C3CC3)cc(C(=O)O)c(=O)n12.Cl	CCH442	-	MIC	-	>100 µg/mL
Oc1ccc([C@H]2c3c(O)cc(O)cc3C3c4c(cc(O)cc4C2O)O[C@@H]3c2ccc(O)cc2)cc1	SC5314	-	MIC95	broth dilution	>300 µg/mL
Clc1ccc(COC(Cn2ccnc2)c2ccc(Cl)cc2Cl)c(Cl)c1	75 strains	10 µg/mL	inhibition	agar diffusion / agar	51%
COc1ccc(CN=C=S)cc1	-	-	MFC	broth dilution	2 µg/mL
NC1CCN(c2c(F)cn3c(=O)c(C(=O)O)cc(C4CC4)c3c2Cl)C1.O=C(O)C(F)(F)F	CCH442	-	MIC	-	>100 µg/mL
CC(=O)Oc1ccc(/C=C/c2cc(O)cc(OC(C)=O)c2)cc1	SC5314	-	MIC95	broth dilution	>300 µg/mL
Cc1c(N2CC[C@@H]([C@H](C)N)C2)c(F)cn2c(=O)c(C(=O)O)cc(C3CC3)c12.Cl	CCH442	-	MIC	-	>100 µg/mL
C[C@@H](c1ncncc1F)[C@](O)(Cn1cncn1)c1ccc(F)cc1F	9 clinical isolates	-	MIC90	broth dilution	0.25 µg/mL
Cc1c(N2C[C@@H](N)C[C@@H]2C)c(F)cn2c(=O)c(C(=O)O)cc(C3CC3)c12.Cl	CCH442	-	MIC	-	>100 µg/mL
COc1cc(/C=C/c2ccc(O)cc2)cc(OC)c1	SC5314	-	MIC95	broth dilution	29 µg/mL

A second listing of 4 rows from above:

C=CCc1ccc(O)c(-c2ccc(O)c(CC=C)c2)c1 ; strain or isolate: YL 325 ; read-out: MIC ; read by: broth dilution ; result: 128 µg/mL
O=c1c(-c2ccc(O)cc2)coc2cc(OCCCn3cnc4ccccc43)cc(O)c12 ; read-out: MIC ; read by: MTT ; result: >50 µg/mL
C[C@@H]1[C@H](O)[C@@H](C)/C=C/C=C/CC/C=C/C=C/C=C/C=C/C(O[C@H]2O[C@H](C)[C@@H](O)[C@H](N)[C@@H]2O)CC2O[C@](O)(CC(O)C(O)CCC(O)CC(O)CC(O)CC(=O)O[C@H]1C)CC(O)C2C(=O)O ; read-out: MFC ; read by: broth dilution ; result: 25 µg/mL
CO[C@H]1/C=C/O[C@@]2(C)Oc3c(C)c(O)c4c(O)c(c(/C=N/N5CCN(C)CC5)c(O)c4c3C2=O)NC(=O)/C(C)=C\C=C\[C@H](C)[C@H](O)[C@@H](C)[C@@H](O)[C@@H](C)[C@H](OC(C)=O)[C@@H]1C ; strain or isolate: 20 isolates ; tested at: 0.4 µg/mL ; read-out: inhibition ; result: 25%